Here are results for two sequences from PMC7064754.

Construct, isoform or probe ends are uncertain for at least one entry. For some assays here: Results from cells or extracts need not show a direct contact. At least one verdict was read from the data and is not stated in words by the source.

Data set [1] relates to MCPyV large T antigen (LT-Ag), wild type (Merkel cell polyomavirus). Put plainly: EMSA. Conditions: 5 mM AMP-PNP, EMSA: 30 mM Tris-HCl pH 8.0, 10% glycerol, 25 ng/ul BSA, 3 ng/ul sonicated sperm DNA, 0.5 ng/ul poly(dI-dC), 1 mM PMSF, 20 min, room temperature, protein in a lysate after overexpression, label: 5' 32P.
Data set [2] concerns SBP-tagged MCPyV LT-Ag, purified (Merkel cell polyomavirus). Put plainly: DPI-ELISA. The following applies: recombinant protein, protein details: SBP (streptavidin-binding peptide), label: 3' biotin-TEG on strand 1.
Data set [3] deals with MCPyV large T antigen (LT-Ag), wild type (Merkel cell polyomavirus). Put plainly: DPI-ELISA. The following applies: HEK293 nuclear extract; protein in a lysate after overexpression; label: 3' biotin-TEG on strand 1.

Consider “AATTCAAGTTGGCAGAGGCTTGGGGCTCCTAGCCTCCGAGGCCTCTGGAAAAAAAAGAGAGAGGCCTCTGAGGCTTAAGAGGCTTAATTAG / AATTCTAATTAAGCCTCTTAAGCCTCAGAGGCCTCTCTCTTTTTTTTCCAGAGGCCTCGGAGGCTAGGAGCCCCAAGCCTCTGCCAACTTG [MCPyV ori EMSA probe (ori1/ori2)]”, for which the binding result in data set [1] (nuclear extract of HEK293 Con cells) and in data set [1] (nuclear extract of HEK293 Kap1 knockout cells) was “binds” each time.

On to “TAATTAAGCCTCTTAAGCCTCAGAGGCCTCTCTCTTTTTTTTCCAGAGGCCTCGGAGGCTAGGAGCCCCAAGCCTCTGCC (double strand) [MCPyV minimal ori, biotinylated (ori_bio1/ori_unbio2)]”, for which the binding result in data set [2] (LT purified from HEK293 Con cells) is “binds”; in data set [2] (LT purified from HEK293 Kap1 knockout cells, binding unchanged) it was “binds”; in data set [3], “binds”.
